Compound potency records, mixed from different reports. Data source: NIAID ChemDB in PubChem.

All rows: whole-cell or culture tests; agent: Bovine viral diarrhea virus

ECn is the concentration giving n% inhibition of infection, replication or growth.

compound	cells	read-out	method	strain or isolate	result
Cc1ccc(NC(=S)N=Nc2c(O)n(CN3CCCCC3)c3ccc([N+](=O)[O-])cc23)cc1	MDBK	EC50	cytopathic effect	-	>19 µg/mL
Fc1cccc(Cn2ccc3nc(-c4ccccc4)nc-3c2)c1	MDBK	EC50	cytopathic effect	PE515	0.246 µg/mL
Cc1ccc(NC(=S)N=Nc2c(O)[nH]c3ccc([N+](=O)[O-])cc23)cc1	MDBK	EC50	cytopathic effect	-	>17 µg/mL
Nc1ncnc2c1ncn2[C@@H]1O[C@H](CO)[C@](O)(C(F)(F)F)[C@H]1O	-	EC50	-	-	≥100 µM
CC(=O)O[C@H]1C[C@H](n2cc(/C(Cl)=C\I)c(=O)[nH]c2=O)O[C@@H]1CO	MDBK	EC50	cytopathic effect	NADL	>100 µM
Brc1ccc(Cn2ccc3nc(-c4ccccc4)nc-3c2)cc1	MDBK	EC50	ELISA	PE515 (TYPE 1)	0.1 µM
c1ccc(-c2nc3ccn(Cc4ccncc4)cc-3n2)cc1	MDBK	EC50	cytopathic effect	PE515	0.041 µg/mL
O=[N+]([O-])c1ccc2c(c1)c(N=NC(=S)Nc1ccccc1)c(O)n2CN1CCCCC1	MDBK	EC50	cytopathic effect	-	>20 µg/mL
FC(F)(F)c1cccc(Cn2ccc3nc(-c4ccccc4)nc-3c2)c1	MDBK	EC50	cytopathic effect	PE515	0.58 µg/mL
C=CCNC(=S)N=Nc1c(O)[nH]c2ccc([N+](=O)[O-])cc12	MDBK	EC50	cytopathic effect	-	>50 µg/mL
C[C@@]1(F)[C@H](O)[C@@H](CO)O[C@H]1n1ccc(N)nc1=O	MDBK	EC90	replicon	-	>100 µM
CN(C)c1cccc(-c2nc3ccn(Cc4ccc(Br)cc4)cc-3n2)c1	MDBK	EC50	cytopathic effect	PE515	0.015 µg/mL
CC(=O)O[C@@H]1C[C@@H](CO)O[C@H]1n1cc(/C(I)=C\I)c(=O)[nH]c1=O	MDBK	EC50	cytopathic effect	NADL	>100 µM
Cc1cn([C@@H]2O[C@H](CO)[C@](O)(C(F)(F)F)[C@H]2O)c(=O)[nH]c1=O	-	EC50	-	-	≥100 µM
NCCCC[C@H](N)C(=O)Nc1cccc(-c2ccc(NC(=O)Nc3nc4ccccc4s3)nc2)c1	MDBK	EC50	plaque count	NADL	0.6 µM
CC1S/C(=N/N=C2\C(=O)Nc3ccc([N+](=O)[O-])cc32)N(c2ccc([N+](=O)[O-])cc2)C1=O	MDBK	EC50	cytopathic effect	-	>18 µg/mL
CC(=O)O[C@@H]1[C@H](OC(C)=O)[C@@H](CO)O[C@H]1n1cc(C#CI)c(=O)[nH]c1=O	MDBK	EC50	cytopathic effect	NADL	>100 µM
CN1C(=O)CS/C1=N/N=C1\C(=O)Nc2ccc([N+](=O)[O-])cc21	MDBK	EC50	cytopathic effect	-	50 µg/mL
Cc1cccc(-c2nc3ccn(Cc4ccc(Br)cc4)cc-3n2)c1	MDBK	EC50	cytopathic effect	PE515	0.1 µg/mL
CCCCN1C(=O)C(C)S/C1=N/N=C1\C(=O)Nc2ccc([N+](=O)[O-])cc21	MDBK	EC50	cytopathic effect	-	>50 µg/mL
CC(=O)O[C@@H]1C[C@@H](CO)O[C@H]1n1cc(C#CI)c(=O)[nH]c1=O	MDBK	EC50	cytopathic effect	NADL	>100 µM

A second listing of 2 rows from above:

compound,cells,read-out,method,strain or isolate,result
O=[N+]([O-])c1ccc2c(c1)c(N=NC(=S)Nc1ccccc1)c(O)n2CN1CCCCC1,MDBK,EC50,cytopathic effect,-,>20 µg/mL
c1ccc(-c2nc3ccn(Cc4ccncc4)cc-3n2)cc1,MDBK,EC50,cytopathic effect,PE515,0.041 µg/mL

Blank or dashed fields: not listed here. Lines come from different laboratories, so protocols vary.